Target: spike protein of SARS-CoV (NCBI:txid229992) (SARS-CoV) (UniProt P59594)

Substance | IC50 of neutralisation of infectious SARS-CoV on Vero E6 cells
ACE2-IgM-Fc hexamer (from UniProt Q9BYF1-1;P01871) (Fc fusion) | 0.68 nM
ACE2-IgM-Fc monomer (from UniProt Q9BYF1-1;P01871) (Fc fusion) | 65.2 nM
